PubChem BioAssay AID504761 – Drosophila RNAi Screening Center, 2011
Test: 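Genome-wide fly cell screen for genes dengue virus requires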 (primary screen). Cell system: D.Mel-2 cells from Drosophila. Knock-down reagent: long dsRNA against Drosophila genes. Conditions: infection with dengue virus type 2; dose and infection time not stated. Measurement: 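Cells stained for dengue envelope protein and imaged; percent of infected cells per well on duplicate plates, ranked by infection, with stained nuclei counted for cell number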. Direction: infection score: higher = more virus-infected cells. Rule for the call: 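Low infection ranks in the two replicates (chance level up to 0.065) followed by a retest with a 1.5-fold or larger significant decrease, p below 0.05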. Meaning of the calls: active = confirmed: knock-down lowers infection; inactive = not picked or not confirmed.
The screen tested about 22,000 reagents; shown is an unselected part of those with a known target gene and a result. Of all reagents, 116 (0.52%) got an active call. 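Calls depend on retest data that are not deposited; infection was ranked per plate without normalising between plates; the unit of the infection score is not given.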 The numbers tell different reagents against one gene apart. Further read-outs or replicates are left out here. Not given: the amount of reagent, the time to read-out.

Nulp1 (Nuclear localized protein 1) scored infection score, replicate 1 = 10.7; inactive.
Depletion of JMJD6 (Jumonji domain containing 6) #1 resulted in: infection score, replicate 1 = 9.96; inactive.
Against JMJD6 (Jumonji domain containing 6) #2 the deposit lists infection score, replicate 1 = 1.43; inactive.
Against Cyt-c-p (Cytochrome c proximal) the deposit lists infection score, replicate 1 = 13; inactive.
rdgB (retinal degeneration B) #1 showed infection score, replicate 1 = 4.2; inactive.
rdgB (retinal degeneration B) #2 gave infection score, replicate 1 = 10.6; inactive.
vnd (ventral nervous system defective) #1 showed infection score, replicate 1 = 3.94; inactive.
Depletion of vnd (ventral nervous system defective) #2 gave: infection score, replicate 1 = 1.64; inactive.
Against vnd (ventral nervous system defective) #3, the entry reads infection score, replicate 1 = 0.95; inactive.
After knock-down of CG11159 the results were infection score, replicate 1 = 5.49; inactive.
For t-Grip91 (testis-specific gamma-tubulin ring protein 91), the values are infection score, replicate 1 = 0.22; inactive.
Ir7g (Ionotropic receptor 7g) #1 scored infection score, replicate 1 = 5.6; inactive.
With knock-down of Ir7g (Ionotropic receptor 7g) #2, the screen gave infection score, replicate 1 = 27.5; inactive.
CG33170 showed infection score, replicate 1 = 3.02; inactive.
With knock-down of Oli (Olig family) #1 the results were infection score, replicate 1 = 9.1; inactive.
With knock-down of Oli (Olig family) #2, the screen gave infection score, replicate 1 = 8.77; inactive.
For Bicra #1 the deposit lists infection score, replicate 1 = 4.88; inactive.
After knock-down of Bicra #2, the screen gave infection score, replicate 1 = 0.83; inactive.
CadN (Cadherin-N) #1 scored infection score, replicate 1 = 7.83; inactive.
Knock-down of CadN (Cadherin-N) #2 gave: infection score, replicate 1 = 10.6; inactive.
Depletion of Gpat4 (Glycerol-3-phosphate acyltransferase 4) came out at: infection score, replicate 1 = 25.7; inactive.
After knock-down of Sf3b1 (Splicing factor 3b subunit 1), the screen gave infection score, replicate 1 = 6.84; inactive.
Knock-down of Muc4B (Mucin 4B) #1 gave: infection score, replicate 1 = 13.7; inactive.
Against Muc4B (Mucin 4B) #2, the values are infection score, replicate 1 = 9.75; inactive.
With knock-down of Muc4B (Mucin 4B) #3, the record shows infection score, replicate 1 = 9.96; inactive.
CG3301 showed infection score, replicate 1 = 4.5; inactive.
Knock-down of Aplip1 (APPL-interacting protein 1) #1 came out at: infection score, replicate 1 = 2.52; inactive.
Aplip1 (APPL-interacting protein 1) #2 showed infection score, replicate 1 = 18.2; inactive.
Silencing of Aplip1 (APPL-interacting protein 1) #3 resulted in: infection score, replicate 1 = 4.11; inactive.

Laid out differently: results already given.
Target gene	reagent no.	infection score, replicate 1	activity call
CG11159	1	5.49	inactive
t-Grip91 (testis-specific gamma-tubulin ring protein 91)	1	0.22	inactive
